The target in this assay is KsBcl-2 (Human herpesvirus 8 type P, UniProt F5HGJ3, V117A). It is filed as binding, Kaposi's sarcoma-associated herpesvirus. The conditions noted are these: for affinity for KsBcl-2, higher than the limit of detection / binding to KsBcl-2 (in words): SPR; for affinity for KsBcl-2, higher than the limit of detection: stated in text as limit of detection; for binding to KsBcl-2 (in words): statement in the discussion; for IC50: read-out: Affinity (nM), KsBcl2 (This Study), measured by SPR, summary table without errors, NB = No Binding. For orientation: Surface plasmon resonance follows binding to a sensor surface in real time, without labels.

Amino acid sequences for entries named in this document (tags omitted). Residues count along the entry.
UniProt F5HGJ3, 1-146 V117A: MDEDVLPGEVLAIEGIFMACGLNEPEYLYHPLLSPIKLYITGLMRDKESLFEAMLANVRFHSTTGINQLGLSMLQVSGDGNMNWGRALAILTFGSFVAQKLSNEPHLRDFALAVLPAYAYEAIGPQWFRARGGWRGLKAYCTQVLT

Structures are written as SMILES.

In the case of `CSCC[C@H](NC(=O)[C@H](CCCNC(=N)N)NC(=O)[C@H](CCCNC(=N)N)NC(=O)[C@H](CC(C)C)NC(=O)[C@H](CCC(=O)O)NC(=O)[C@H](CCCNC(=N)N)NC(=O)CNC(=O)[C@H](Cc1ccc(O)cc1)NC(=O)[C@H](CCCNC(=N)N)NC(=O)[C@H](CCC(N)=O)NC(=O)[C@H](C)NC(=O)[C@H](C)NC(=O)[C@H](Cc1c[nH]c2ccccc12)NC(=O)[C@H](CC(C)C)NC(=O)[C@@H](N)CC(N)=O)C(=O)N[C@@H](CO)C(=O)N[C@@H](CC(=O)O)C(=O)N[C@@H](CCC(=O)O)C(=O)N[C@@H](Cc1ccccc1)C(=O)N[C@H](C(=O)N[C@@H](CC(=O)O)C(=O)N[C@@H](CO)C(=O)N[C@@H](Cc1ccccc1)C(=O)N[C@@H](CCCCN)C(=O)N[C@@H](CCCCN)C(=O)NCC(=O)O)C(C)C` [Bad], the “affinity for KsBcl-2, higher than the limit of detection” value was over 2 mM; the “binding to KsBcl-2 (in words)” value was “did not detect any affinity”; the IC50 was over 2000 nM.

Take `CC[C@H](C)[C@H](NC(=O)[C@H](CS)NC(=O)[C@H](CCC(N)=O)NC(=O)[C@H](CC(C)C)NC(=O)[C@H](CCCCN)NC(=O)[C@H](CCCNC(=N)N)NC(=O)[C@H](C)NC(=O)[C@@H](NC(=O)[C@H](CCC(N)=O)NC(=O)[C@@H](NC(=O)[C@H](CCC(=O)O)NC(=O)[C@H](C)NC(=O)[C@H](CCC(N)=O)NC(=O)[C@H](Cc1c[nH]cn1)NC(=O)[C@@H](N)CCC(N)=O)C(C)C)[C@@H](C)CC)C(=O)N[C@@H](C)C(=O)N[C@@H](CC(=O)O)C(=O)N[C@@H](CCC(N)=O)C(=O)N[C@@H](Cc1ccccc1)C(=O)N[C@@H](Cc1c[nH]cn1)C(=O)N[C@@H](CCCNC(=N)N)C(=O)N[C@@H](CC(C)C)C(=O)N[C@@H](Cc1c[nH]cn1)C(=O)N[C@H](C(=O)N[C@@H](CCC(N)=O)C(=O)N[C@@H](CCC(N)=O)C(=O)O)C(C)C` [Bmf]: the “affinity for KsBcl-2, higher than the limit of detection” value is recorded as over 2 mM; the “binding to KsBcl-2 (in words)” value is “did not detect any affinity”; the IC50 is over 2000 nM.
